Reference: paper PMC4917206, “Chemical Modification of Influenza CD8+ T-Cell Epitopes Enhances Their Immunogenicity Regardless of Immunodominance” (PLoS ONE, 2016)

Key:
[1] = target: T1, HLA-A*0201 (Homo sapiens, UniProt P04439, D140Y/D185E/D98H/E176V/E277Q/G131W/G231S/I119V/I121R/I166T/I218V/L300P/L318F/N151K/N90K/P208A/P217A/Q86G/Q94H/R138H/R169H/T345S); format: binding
T1 construct: Soluble MHC was dissolved in PBS containing 0.5 mg/ml bovine γ-globulin; made in house

[2] = system: […]-specific T cell clone; format: cell-based
[3] = system: splenocytes of WT-vaccinated HLA-A2 tg mice; format: cell-based, mouse; parameters: key to response compared with WT peptide control, mouse splenocytes: *: Lower response than WT peptide

GILGFVFT[2-AOC] [G22]
FP binding score, percentage inhibition of tracer peptide binding, 4h [1]: 79% | FP binding score, percentage inhibition of tracer peptide binding, 24h [1]: 77% | T cell clone: percentage of IFN-γ producing T cells, Average [2]: 23.3% | rank by T cell activation, mouse splenocytes [3]: Upper 3 | response compared with WT peptide control, mouse splenocytes [3]: G22 ^*

[3-PYRA]ILGFVFTL [G8]
FP binding score, percentage inhibition of tracer peptide binding, 4h [1]: 94% | FP binding score, percentage inhibition of tracer peptide binding, 24h [1]: 93%

[3-pyra]ILGFVFTL [G4]
FP binding score, percentage inhibition of tracer peptide binding, 4h [1]: 92% | FP binding score, percentage inhibition of tracer peptide binding, 24h [1]: 92%

[4-PYRA]ILGFVFTL [G15]
FP binding score, percentage inhibition of tracer peptide binding, 4h [1]: 93% | FP binding score, percentage inhibition of tracer peptide binding, 24h [1]: 93%

[4-pyra]ILGFVFTL [G10]
FP binding score, percentage inhibition of tracer peptide binding, 4h [1]: 90% | FP binding score, percentage inhibition of tracer peptide binding, 24h [1]: 91%

[am-phg]ILGFVFTL [G1]
FP binding score, percentage inhibition of tracer peptide binding, 4h [1]: 97% | FP binding score, percentage inhibition of tracer peptide binding, 24h [1]: 98%

fILGFVFTL [G24]
FP binding score, percentage inhibition of tracer peptide binding, 4h [1]: 86% | FP binding score, percentage inhibition of tracer peptide binding, 24h [1]: 81%

yILGFVFTL [G9]
FP binding score, percentage inhibition of tracer peptide binding, 4h [1]: 94% | FP binding score, percentage inhibition of tracer peptide binding, 24h [1]: 90%
